# Experimental data: patent publication US12516292B2, “Methods of producing modified natural killer cells and methods of use” (The United States of America, as represented by the …, priority 2016, dated 2026)
# Tested on: primary human NK cells
# Experiment: Lentiviral transduction of primary human NK cells, eGFP/GFP expression by FACS
# Type: cell-based
# Conditions: 500 U/ml IL-2 0 to 5 days before pLV[Exp]-PGK>EGFP at 20:1 MOI, RetroNectin plates, three days after transduction (FIG. 24)
substance,measurement,value
"IL-2: recombinant human IL-2 (Roche), cytokine used to prime NK cells",GFP expression and viability,provides efficient transduction and maintains NK cell viability
